Measured values from several laboratories, pooled; numbers as filed in NIAID ChemDB.

Shared fields: tests in culture; species: HIV-1; cell line: MT-4; read-out: fold resistance

An empty or dashed field is not shown. Lines come from different laboratories, so protocols vary. Fold resistance: result on the changed form divided by that on wild type.

smiles,strain or isolate,mutations,method,result
CCN[C@H]1CO[C@@H]2OCC[C@H](OC(=O)N[C@@H](Cc3cccc(OC)c3)[C@H](O)CN(CC(C)C)S(=O)(=O)c3ccc4nc(NC(C)C)sc4c3)[C@@H]21,NL4-3,L10F K20T D30N K45I A71V V77I,p24 / luminescence,0.9
Cc1cc(C)cc(S(=O)(=O)c2c(C(=O)NC(C)C(=O)NC(C)c3ccccc3F)[nH]c3ccc(Cl)cc23)c1,NL4-3,Y188L,cytopathic effect / MTT / absorbance,>25387
Nc1nc(=O)n([C@@H]2CO[C@H](CO)S2)cc1F,HxB2D(RT-D67G),RT-D67G,RT activity,4.55
C=C(C)OC(=O)N1c2cc(Cl)ccc2NC(=S)C1(C)C,Recombinant,RT-V106A,cytopathic effect,30
CCCCCCCSc1nsc(NC(=O)Nc2ccccc2)n1,NL4-3,AMD3100-resistant,cytopathic effect,1.3
O=C1N(Cc2ccc(CO)cc2)[C@H](COc2ccccc2)[C@H](O)[C@@H](O)[C@@H](COc2ccccc2)N1Cc1ccc(CO)cc1,IIIB,PR-L90M,cytopathic effect / XTT,1.71
N#Cc1ccc(Nc2nc(Cc3c(Cl)cccc3Cl)nc(NO)n2)cc1,NNRTI-resistant (RT K103N Y181C),RT-K103N Y181C,cytopathic effect / MTT,176.5
CC(C)=CCN1c2cc(Cl)cc3[nH]c(=S)n(c23)C[C@@H]1C,-,RT-M41L T215Y Y181C,-,>30
CCc1c(C)[nH]c(=O)c(-n2cccc2)c1Cc1cc(C)cc(C)c1,Recombinant,RT-Y188L,cytopathic effect / MTT,158
CCOCn1c(Cc2ccccc2)c(C(C)C)c(=O)[nH]c1=O,IIIB,RT-Y181C,cytopathic effect / MTT,2200
O=C1c2ccccc2C(=O)N1CCOC(=S)N(C(=O)c1ccccc1)c1ccccc1,N119 nevirapine-resistant (RT Y181C),RT-Y181C,cytopathic effect / MTT,>250
COc1ccc2c(c1)N(C(=O)OC(C)C)[C@@H](CSC)C(=S)N2,Recombinant,RT-V106A P225H,cytopathic effect,140
CCCc1c(C)[nH]c(=O)c(N(C)C)c1Cc1cc(C)cc(C)c1,Recombinant,RT-K103N,cytopathic effect / MTT,1.99
Nc1ccn([C@H]2CC[C@@H](CO)O2)c(=O)n1,AJ-05.93 (HXB2(RT-L74V)),RT-L74V,cytopathic effect,4.56
Cc1ccnc2c1NC(=O)c1cccnc1N2C1CC1,TIBO-resistant L100I (RT-L100I),RT-L100I,cytopathic effect / MTT,4.18
N#Cc1ccc(Nc2nc(N)nc(Cc3c(Cl)cccc3Cl)n2)cc1,NNRTI-resistant (RT L100I K103N),RT-L100I K103N,cytopathic effect / MTT,>1666
CCc1c(C)[nH]c(=O)c(N(C)C)c1C(=O)c1cccc(C(C)C#N)c1,-,RT-Y181C,cytopathic effect / MTT,42
CCOCn1c(Cc2ccccc2)c(C(C)C)c(=O)[nH]c1=O,-,RT-Y181C,cytopathic effect / MTT,250
Nc1ccn([C@H]2CC[C@@H](CO)O2)c(=O)n1,RF,RT-M184I,cytopathic effect / MTT,1
CCc1c(C)[nH]c(=O)c(N(C)C)c1C(=O)c1cccc(Br)c1,-,RT-K101E,cytopathic effect / MTT,7
CC(C)=CCN1Cc2cc(Cl)cc3[nH]c(=S)n(c23)C[C@@H]1C,13MB1 (TIBO-resistant RT L100I),RT-L100I,cytopathic effect / MTT,0
CCc1c(C)[nH]c(=O)c(N(C)C)c1Cc1cc(F)cc(F)c1,-,RT-K103N,cytopathic effect / MTT,2.46
O=C1N(Cc2ccccc2)c2cscc2S(=O)(=O)N1Cc1ccccc1,ADP/141,RT-D67N K70R T215F K219Q,syncytia,0.571
CC(C)CN(C[C@@H](O)[C@H](Cc1ccccc1)NC(=O)O[C@H]1CCOC1)S(=O)(=O)c1ccc(N)cc1,NL4-3,L10F V32I L33F M46L I54M A71V,p24 / luminescence,>27
Cc1cn([C@H]2C[C@H](N=[N+]=[N-])[C@@H](CO)O2)c(=O)[nH]c1=O,HXB2-D65(RT-K65R),RT-K65R,p24,0.5
CCN(CC)C(=O)Oc1nsnc1-c1c(Cl)cccc1Cl,IIIB-R (RT-Y181C),RT-Y181C,cytopathic effect / MTT,37.6
Clc1nc(Cl)c2[nH]cnc2n1,SW3-10125R,RT M41L A62V T69SSS insertion V75V/A M184I L210W T215Y,cytopathic effect / MTT,6
CCc1c(C)[nH]c(=O)c(N(C)C)c1Cc1cc(Cl)cc(Cl)c1,-,RT-K103N,cytopathic effect / MTT,3.1
O=C1c2ccccc2C(=O)N1CCOC(=S)N(C(=O)c1ccco1)c1ccc(Cl)cc1,N119 nevirapine-resistant (RT Y181C),RT-Y181C,cytopathic effect / MTT,>14300
CC(C)OC(=O)OCOP(=O)(CO[C@H](C)Cn1cnc2c(N)ncnc21)OCOC(=O)OC(C)C,NL4-3,K65R,cytopathic effect / XTT / absorbance,>16.7
Cc1cn([C@H]2C[C@H](N=[N+]=[N-])[C@@H](CO)O2)c(=O)[nH]c1=O,RF,RT-M184I,cytopathic effect / MTT,0.268
Nc1ccn([C@H]2CC[C@@H](CO)O2)c(=O)n1,HXB2-D294 (RT-P294S),RT-P294S,RT activity,1.05
COc1c(O)c(I)c2c(c1OC)-c1c(c(I)c(O)c(OC)c1OC)C[C@H](C)[C@H](C)C2,1506-RS (RT-Y188L),RT-Y188L,cytopathic effect / MTT,>76.9
CCOCn1c(Cc2ccccc2)c(C(C)C)c(=O)[nH]c1=O,Recombinant,RT-P225H,cytopathic effect,5.7
CN(C)C(=O)Oc1nsnc1-c1cccc(Cl)c1Cl,IIIB-R (RT-Y181C),RT-Y181C,cytopathic effect / MTT,>135
CC(C)=CCOc1cc(NC(=S)c2ccoc2C)ccc1Cl,Recombinant,RT-V106A,cytopathic effect,30
CCN[C@H]1CO[C@@H]2OCC[C@H](OC(=O)N[C@@H](Cc3ccccc3)[C@H](O)CN(CC(C)C)S(=O)(=O)c3ccc4nc(NC5CC5)sc4c3)[C@@H]21,NL4-3,L10I L33I M36I M46I I54V K55R I62V L63P A71V G73S V82T L90M I93L,p24 / luminescence,1.9
CN(C)C(=O)Oc1nsnc1-c1c(Cl)cccc1Cl,IIIB-R (RT-Y181C),RT-Y181C,cytopathic effect / MTT,>950
COc1ccc(S(=O)(=O)N(CC(C)C)C[C@@H](O)[C@H](Cc2ccccc2)NC(=O)O[C@H]2CCO[C@H]3OC[C@H](O)[C@H]32)cc1,NL4-3,L10I I15V K20R L24I V32I M36I M46I L63P K70Q V82A I84V L89M,p24 / luminescence,13
COC(=O)N[C@H](C(=O)N[C@@H](Cc1ccccc1)[C@@H](O)CN(Cc1ccc(-c2ccccn2)cc1)NC(=O)[C@@H](NC(=O)OC)C(C)(C)C)C(C)(C)C,NL4-3,M46I I50V N38K M36I GRL05010-resistant,-,24
CC(=O)Oc1ccc(/C=C/C(=O)O[C@@H](C(=O)O)[C@@H](OC(=O)/C=C/c2ccc(OC(C)=O)c(OC(C)=O)c2)C(=O)O)cc1OC(C)=O,NL4-3,AMD2763-resistant,cytopathic effect / MTT,>9
O=C(c1ccccc1)c1cnc(Cc2ccc(Nc3c(Cl)cccc3Cl)cc2)[nH]1,NL4-3,gp120 F145L N269E Q278H I288V N293D FNSTW364-368 deletion,p24,>15.4
O=C(N[C@H]1c2ccccc2OC[C@H]1O)[C@H](Cc1cccnc1)C[C@H](O)CN1CCN(Cc2ccn(-c3cc(Cl)c(Cl)c(Cl)c3)c2)C[C@H]1C(=O)NCC(F)(F)F,V-18C Clinical isolate,PR-L10I M36I N37D M46I R57K L63P A71V G73S I84V L90M I93L,p24,≥1.875
Cc1cn([C@H]2C[C@H](N=[N+]=[N-])[C@@H](CO)O2)c(=O)[nH]c1=O,22(RT-L100I Y188H),RT-L100I Y188H,cytopathic effect / XTT,0.4
CC(C)CN(C[C@@H](O)[C@H](Cc1ccccc1)NC(=O)O[C@H]1CCOC1)S(=O)(=O)c1ccc(N)cc1,NL4-3,A28S L33F V82I GRL04810-resistant,-,>13
Cc1ccnc2c1NC(=O)c1cccnc1N2C1CC1,NL4-3,RT-K103N Y181C,cytopathic effect,>250
CN[C@H]1CO[C@@H]2OCC[C@H](OC(=O)N[C@@H](Cc3cccc(OC)c3)[C@H](O)CN(CC(C)C)S(=O)(=O)c3ccc4nc(NC(C)C)sc4c3)[C@@H]21,NL4-3,L10I L33I M36I M46I I54V K55R I62V L63P A71V G73S V82T L90M I93L,p24 / luminescence,1.1
CC(C)Nc1cccnc1N1CCN(C(=O)c2cc3cc(NS(C)(=O)=O)ccc3[nH]2)CC1,AJ-05.93 (HXB2(RT-L74V)),RT-L74V,cytopathic effect,7.2
CCc1c(C)[nH]c(=O)c(N(C)C)c1C(=O)c1cccc(/C=C/c2cccnc2)c1,-,RT-Y181C,cytopathic effect / MTT,21
O=C(N[C@H]1c2ccccc2OC[C@H]1O)[C@H](Cc1cccnc1)C[C@H](O)CN1CCN(Cc2ccn(-c3cccc(C(F)(F)F)c3)c2)C[C@H]1C(=O)NCC(F)(F)F,K-60C Clinical isolate,PR-L10I M46I I54V Q58E L63P I64V V77I V82F I84V L90M I93L,p24,2.06
COC(=O)N[C@@H](Cc1c[nH]c2ccccc12)C(=O)NCCCC[C@@H](CO)N(CC(C)C)S(=O)(=O)c1ccc(N)cc1,NL4-3,SQV-resistant (PR G48V L90M),cytopathic effect / MTT,2.6
Cc1cn([C@H]2C[C@H](N=[N+]=[N-])[C@@H](CO)O2)c(=O)[nH]c1=O,A17,RT-K103N Y181C,cytopathic effect / MTT,0.4
CCc1c(C)[nH]c(=O)c(N(C)C)c1Cc1cccc(/C=C/C#N)c1,-,RT-Y188L,cytopathic effect / MTT,395
N#CCN1C(=O)N(Cc2ccccc2)S(=O)(=O)c2cscc21,ADP/141,RT-D67N K70R T215F K219Q,syncytia,1.33
O=C(N[C@H]1c2ccccc2OC[C@H]1O)[C@H](Cc1cccnc1)C[C@H](O)CN1CCN(Cc2ccn(-c3ccccc3)c2)C[C@H]1C(=O)NCC(F)(F)F,K-60C Clinical isolate,PR-L10I M46I I54V Q58E L63P I64V V77I V82F I84V L90M I93L,p24,2.06
O=c1[nH]cnc2c1ncn2[C@H]1CC[C@@H](CO)O1,HXB2D (RT-M184V),RT-M184V,p24,5.37
CCN1C(=O)N(Cc2ccccc2Cl)S(=O)(=O)c2cscc21,ADP/141,RT-D67N K70R T215F K219Q,syncytia,0.575
Cc1ccccc1CNC(=O)[C@H]1N(C[C@@H](O)C[C@@H](Cc2ccccc2)C(=O)N[C@H]2c3ccccc3OC[C@H]2O)CSC1(C)C,-,PR-K60C,p24,>4
O=C(N[C@H]1c2ccccc2OC[C@H]1O)[C@H](Cc1cccnc1)C[C@H](O)CN1CCN(Cc2ccn(-c3ccc(F)c(F)c3F)c2)C[C@H]1C(=O)NCC(F)(F)F,K-60C Clinical isolate,PR-L10I M46I I54V Q58E L63P I64V V77I V82F I84V L90M I93L,p24,≥1.8
O=c1[nH]cnc2c1ncn2[C@H]1CC[C@@H](CO)O1,HxB2D(RT-D67G),RT-D67G,RT activity,2.83
COc1ccc(S(=O)(=O)N(CC(C)C)C[C@@H](O)[C@H](Cc2ccccc2)NC(=O)O[C@H]2CO[C@H]3OCC(F)(F)[C@H]32)cc1,NL4-3,A28S L33F V82I GRL04810-resistant,-,66
O=C1c2ccccc2C(=O)N1CCOC(=S)N(C(=O)c1ccccc1)c1ccc(Cl)cc1,N119 nevirapine-resistant (RT Y181C),RT-Y181C,cytopathic effect / MTT,>1000
CCc1c(C)[nH]c(=O)c(N(C)C)c1C(=O)c1cc(Cl)cc(Cl)c1,-,RT-Y181C,cytopathic effect / MTT,16
Nc1nc(=O)n([C@H]2CO[C@@H](CO)S2)cc1F,HXB2D(RT-M184I),RT-M184I,RT activity,3.75
CCCCN(C)C(=O)Oc1nsnc1-c1c(Cl)cccc1Cl,IIIB-R (RT-Y181C),RT-Y181C,cytopathic effect / MTT,365
CCc1cc(NCc2nc3c(Cl)ccc(Cl)c3o2)c(=O)[nH]c1C,NL4-3,RT-K101E,p24,8

The last 7 rows once more:

smiles,strain or isolate,mutations,method,result
O=c1[nH]cnc2c1ncn2[C@H]1CC[C@@H](CO)O1,HxB2D(RT-D67G),RT-D67G,RT activity,2.83
COc1ccc(S(=O)(=O)N(CC(C)C)C[C@@H](O)[C@H](Cc2ccccc2)NC(=O)O[C@H]2CO[C@H]3OCC(F)(F)[C@H]32)cc1,NL4-3,A28S L33F V82I GRL04810-resistant,-,66
O=C1c2ccccc2C(=O)N1CCOC(=S)N(C(=O)c1ccccc1)c1ccc(Cl)cc1,N119 nevirapine-resistant (RT Y181C),RT-Y181C,cytopathic effect / MTT,>1000
CCc1c(C)[nH]c(=O)c(N(C)C)c1C(=O)c1cc(Cl)cc(Cl)c1,-,RT-Y181C,cytopathic effect / MTT,16
Nc1nc(=O)n([C@H]2CO[C@@H](CO)S2)cc1F,HXB2D(RT-M184I),RT-M184I,RT activity,3.75
CCCCN(C)C(=O)Oc1nsnc1-c1c(Cl)cccc1Cl,IIIB-R (RT-Y181C),RT-Y181C,cytopathic effect / MTT,365
CCc1cc(NCc2nc3c(Cl)ccc(Cl)c3o2)c(=O)[nH]c1C,NL4-3,RT-K101E,p24,8